Patent publication US4157396A, “Hydroxamic acid derivatives and medicaments for treatment of urolithiasis and pyelonephrosis comprising such derivatives” (Eisai Co., Ltd., priority 1976, dated 1979)

Assay: Determination of the transfer rate into the urine and calculation of the index
Type: in vivo, male rats of SD strain
Settings: calculated from I50 and mean transfer rate into the urine during 6 hours after administration, n = 6
Protocol: (ii) Determination of the transfer rate into the urine
Transfer rates into the urine of the examination compounds were determined according to the method of Kobashi et al [Refer to Biochemistry (Japan) vol. 44, No. 5, pp. 187-204 (1972) and Yakugaku Zasshi vol. 12, pp. 1564-1572 (1973)] by using the male rats of SD strain having the body weight of about 280 g, administering orally each 100 mg/Kg of the compounds, and measuring the urease inhibitory action in the excreted urine within a specified period of time.
(iii) Calculation of the index
The index was calculated from the resulting values of the above examinations (i) and (ii) according to the following equation: [formula] wherein n is chosen appropriately depending on the value of I50.
The value of the index is referred to as a standard of the urease inhibitory power of the administered examination compound in the urine.
It is seen that the larger the value of the index is, the more effectively the examination compounds transfer into the urine with a form having the urease inhibitory action. Results of the determination

For COc1cccc(C(=O)NCC(=O)NO)c1 [Compound B, 2-(meta-methoxy-benzamide)-acetohydroxamic acid], which Index is on record?
The Index was 10.30 and 6.2.

Which Index does the source give for O=C(CNC(=O)c1ccc(Cl)cc1)NO [Control compound I, 2-(para-chloro-benzamide)-acetohydroxamic acid, reference compound] here?
The Index was 1.00.

And the Index (listed as control compound I)?
Its Index is 1.0.

Which Index does the source give for CC(=O)Nc1cccc(C(=O)NCC(=O)NO)c1 [Compound M, 2-(meta-acetylaminobenzamide)-acetohydroxamic acid] here?
The Index was 7.5.

With O=C(CNC(=O)c1ccco1)NO [Compound R, 2-(2-furoilamino)-acetohydroxamic acid] as the molecule, how does the Index read?
The Index was 11.9.

For COc1ccc(C(=O)NCC(=O)NO)cc1 [Compound A, 2-(para-methoxy-benzamide)-acetohydroxamic acid], which Index is on record?
Its Index is 7.06 and 4.2.

Where “and” joins values, the source holds several entries; their conditions need not be identical. Identical values can stand only once.
